Measured values published in patent publication US6891069B1, “Synthesis of 4-substituted phthalaldehyde” (Ethicon, Inc., priority 2004, dated 2005).

Assay: pigskin staining test
Design: species or system pig
Conditions: about 10 μL on pigskin, about 24 hours, room temperature

SMILES | Staining Results (0.14% solution) | Staining Results (0.20% solution)
O=Cc1ccccc1C=O [OPA, phthalaldehyde] | Dark Staining | –
O=Cc1cccc(C=O)c1 [IPA, isophthalaldehyde, reference compound] | – | Non-Staining
